# Measured values as given in PMC11211474, “A broad neutralizing nanobody against SARS-CoV-2 engineered from an approved drug” (Cell Death & Disease, 2024).
# B1: nanobody VHH60 (monomeric, without Fc) (VHH)
# VHH: EVQLVESGGGLVQPGGSLRLSCAASGRTFRVNLMGWFRQAPGKGRELVASINGFDDITYYPDSVEGRFTISRDNAKRMVYLQMNSLRAEDTAVYYCAAYDSDYDGRLFNYWGQGTQVTVSS
# Target: SARS-CoV-2 RBD (319-531) (SARS-CoV-2, wild type (Wuhan-Hu-1, …, UniProt P0DTC2))
# Assay: crystal structure
# Conditions: both partners purified
binder,measurement,value
B1,binding result,binds
